Biological target: PopP2-CFP, full length (Ralstonia solanacearum) (UniProt Q8Y125)
Test: FRET or BRET

Substance: C-terminal portion of RRS1-R (1190-1378) fused to YFPv (domain or fragment)
- FRET efficiency E: 10.7%
- mean CFP donor lifetime with acceptor: 2.54 ns
- Δt, donor lifetime without minus with acceptor: 0.302 ns

— publication PMC8514532, “Secondary-structure switch regulates the substrate binding of a YopJ family acetyltransferase” (2021)
